For two compounds, inhibition results are on record in PubChem BioAssay AID624309 (Sanford-Burnham Center for Chemical Genomics, 2012).

The list shows a part of the results, in another mix than the full data. Calls of active or inactive are those of the source. No stated cut-off is given here; in the data, active means inhibition mostly above about 42% (no sharp cut-off); inactive means mostly below about 42%.

In this assay the test system is Nicotinate mononucleotide adenylyltransferase NadD (Staphylococcus aureus N315). Kind of assay: S. aureus NadD enzyme activity blockers – biochemical, colorimetric, single concentration, confirmation (AID 624309). Particulars: purified S. aureus NadD, colorimetric enzyme assay; at 20 µM; active compounds read high.
On to `CCCCn1nnnc1C(c1cc2ccccc2o1)N1CCC(n2c(=O)[nH]c3ccccc32)CC1` (configuration not stated), for which the inhibition is inactive: 19.4%.

For `O=c1[nH]c2ccccc2n1C1CCN(C(c2cccc3ccccc23)c2nnnn2C2CCCC2)CC1` (configuration not stated), the inhibition was inactive: 25.6%.
